For one experiment, the target named is EBOV/Mak GP (UniProt P87666). The experiment in a line: SPR.
A further experiment concerns the target Ebola (UniProt P87666). Nature of the experiment: ELISA. Background: ELISA stands for enzyme-linked immunosorbent assay.

As usually defined, the Kd is the free concentration of one partner at which half of the binding sites on the other are occupied at equilibrium, for simple one-to-one binding. Low readings indicate a tighter complex, high ones a looser complex. The term EC50 denotes the midpoint of the concentration-response curve. For 6D8, the Kd with EBOV/Mak GP was 3.67 nM. The substance also showed an EC50 with Ebola of 0.0882 mg/L.
13C6 yielded a Kd with EBOV/Mak GP of 8.35 nM. The same substance displayed an EC50 in the experiment with Ebola of 0.0623 mg/L.

(Values after patent US20220387579A1.)
